# Reference: ChEMBL document CHEMBL6153072, “Metabolically Stable Adenylation Inhibitors of Biotin Protein Ligase as Antibacterial Agents” (J Med Chem, 2025)
# Columns and labels:
# [1] = system: Mycobacterium tuberculosis; assay: Selectivity ratio of MIC50 for Mycobacterium tuberculosis H37Rv harboring under-expression of BPL to MIC50 for wild type Mycobacterium tuberculosis H37Rv; type: functional
# [2] = system: Mycobacterium tuberculosis; assay: Selectivity ratio of MIC50 for wild type Mycobacterium tuberculosis H37Rv to MIC50 for Mycobacterium tuberculosis H37Rv harboring high overexpression of BPL; type: functional
smiles,measurement,setting,value
Nc1ncnc2c1ncn2[C@@H]1O[C@H](CNS(=O)(=O)[N-]C(=O)NCCC[C@@H]2SC[C@@H]3NC(=O)N[C@@H]32)[C@@H](O)[C@H]1O.[Na+],Ratio,[1],70
same,Ratio,[2],5
